A mixed list of measured activities; the numbers were collected in NIAID ChemDB.

All rows: host cell toxicity; cells: MT-4; measure: CC50

CCn is the concentration with n% toxicity to the cells. Lines come from different laboratories, so protocols vary.

{"SMILES": "CNc1nc(Nc2ccc(C#N)cc2F)nc(Oc2ccc(C)cc2)n1", "value": "248 µM"}
{"SMILES": "Cc1cn([C@H]2O[C@@H](CO)C[C@@H]2N=[N+]=[N-])c(=O)[nH]c1=O", "value": ">100 µM"}
{"SMILES": "COC(=O)[C@H]1[C@@H]2C[C@@H](O[C@@H]3O[C@H](C)[C@@H](O)[C@H](N)[C@@H]3O)/C=C/C=C/C=C/C=C/C=C/C=C/C=C/[C@H](C)[C@@H](O)[C@H](C)[C@H](C)OC(=O)C[C@H](O)C[C@H](O)[C@@H](O)CC[C@H](O)C[C@H](O)C[C@](O)(C[C@@H]1O)O2", "value": ">20 µg/mL"}
{"SMILES": "COc1ccc2c(c1)c1cc(C(C)=O)c(C)n1c1cccc(N)c21", "value": "40 µM"}
{"SMILES": "COc1cccc(N2C(=O)CSC2c2c(F)cccc2Cl)c1", "value": "56.54 µM"}
{"SMILES": "CC(=O)c1cc(-c2ccccc2)n(-c2cccc(N)c2)c1C", "value": "22 µM"}
{"SMILES": "O=c1[nH]cnc2c1ncn2[C@@H]1O[C@H](CO)[C@H]1COS(=O)(=O)O", "value": ">100 µg/mL"}
{"SMILES": "CCOCn1c(Cc2ccccc2)c(C(C)C)c(=O)[nH]c1=O", "value": ">100 µM"}
{"SMILES": "Cn1c2ccccc2c(=O)c2c(O)cccc21", "value": "15 µg/mL"}
{"SMILES": "C=C(C)C(=O)OCCOP(=O)(O)O", "value": ">43 µg/mL"}
{"SMILES": "NS(=O)(=O)c1ccc(-c2c3nc(c(-c4ccc(S(N)(=O)=O)cc4)c4ccc([nH]4)c(-c4ccc(S(N)(=O)=O)cc4)c4nc(c(-c5ccc(S(N)(=O)=O)cc5)c5ccc2[nH]5)C=C4)C=C3)cc1", "value": "70 µg/mL"}
{"SMILES": "C=CCNc1nc(Nc2ccc(C#N)cc2F)nc(Oc2ccc(C)cc2)n1", "value": "186 µM"}
{"SMILES": "CCOC(=O)c1cc(-c2cccc([N+](=O)[O-])c2)n(-c2ccccc2)c1C", "value": "212 µM"}
{"SMILES": "Nc1ncnc2c1ncn2[C@H]1C[C@@H](CO)O1", "value": ">10 µg/mL"}
{"SMILES": "Cc1cn([C@H]2C[C@@H](OCCP(=O)(O)O)CO2)c(=O)[nH]c1=O", "value": ">250 µM"}
{"SMILES": "O=C1CSC(c2c(F)cccc2F)N1c1ccccc1", "value": "38.1 µM"}
{"SMILES": "CC(NS(=O)(=O)c1ccc(Cl)cc1)c1nnc(SCc2ccc(F)cc2)o1", "value": "58.75 µg/mL"}
{"SMILES": "CC(C)c1c(SCC2CCC2)c2cc(F)ccc2[nH]c1=O", "value": "68.5 µM"}
{"SMILES": "N#Cc1ccc(Nc2nc(N)nc(Oc3ccc4ccccc4c3Cl)n2)c(F)c1", "value": "252 µM"}
{"SMILES": "CC(C)C([NH3+])C(=O)OC(C)C1C/C=C/CCC(O)C(C)(C)C2CCC(C)C3(O2)O[B-]24OC3C(=O)OC3COC(CCCC(O)C(C)(C)C5CCC(C)C(O5)(O2)C(O4)C(=O)O1)C3", "value": "0.17 µM"}
{"SMILES": "Cc1cn([C@H]2O[C@@H](CO)C[C@H]2O)c(=O)[nH]c1=O", "value": ">100 µM"}
{"SMILES": "CSCCC(c1nnc(SCc2ccc(Br)cc2)o1)N(Cc1ccc(Br)cc1)S(=O)(=O)c1ccc(C)cc1", "value": ">125 µg/mL"}
{"SMILES": "CC(CC(F)(OC(F)(F)C(F)(F)C(F)(F)F)C(F)(F)F)(C(=O)OCCOP(=O)(O)O)C(F)(OC(F)(F)C(F)(F)C(F)(F)F)C(F)(F)F", "value": ">100 µg/mL"}
{"SMILES": "CC(C)c1c(OC#CC2CC2)c2cc(Cl)ccc2[nH]c1=O", "value": "16 µM"}
{"SMILES": "CC(=O)NS(=O)(=O)c1ccc(-c2c3nc(c(-c4ccc(S(=O)(=O)NC(C)=O)cc4)c4ccc([nH]4)c(-c4ccc(S(=O)(=O)NC(C)=O)cc4)c4nc(c(-c5ccc(S(=O)(=O)NC(C)=O)cc5)c5ccc2[nH]5)C=C4)C=C3)cc1", "value": "50 µg/mL"}
{"SMILES": "CNc1nc(Nc2ccc(C#N)cc2F)nc(Oc2ccc3ccccc3c2Br)n1", "value": "98.84 µM"}
{"SMILES": "Nc1ncnc2c1ncn2[C@@H]1OC[C@H](OCCP(=O)(O)O)[C@H]1O", "value": ">250 µM"}
{"SMILES": "CCOC(=O)c1cc(-c2cccc([N+](=O)[O-])c2)n(-c2cccc(OC)c2)c1C", "value": "33 µM"}
{"SMILES": "Cc1ccc(S(=O)(=O)NC(C)c2nnc(SCc3ccc(Br)cc3)o2)cc1", "value": "75.33 µg/mL"}
{"SMILES": "COc1ccc(C2(c3ccc(OC)cc3)OC(=O)c3cccc4cccc2c34)cc1", "value": "26 µM"}
{"SMILES": "C=CNc1nc(Nc2ccc(C#N)cc2F)nc(Oc2ccc3ccccc3c2Cl)n1", "value": "280 µM"}
{"SMILES": "O=C1CSC(c2c(Cl)cccc2Cl)N1c1cccc(Cl)c1", "value": "30.67 µM"}
{"SMILES": "CCCc1c(SCC2CCC2)c2cc(Cl)ccc2[nH]c1=O", "value": "32.9 µM"}
{"SMILES": "C=CCOCn1c(C(F)c2cccc(C#N)c2)c(CC)c(=O)[nH]c1=O", "value": ">100 µM"}
{"SMILES": "CSCCC(NS(=O)(=O)c1ccc(Cl)cc1)c1nnc(SCc2ccc(Br)cc2)o1", "value": "12.3 µg/mL"}
{"SMILES": "Nc1ncnc2c1ncn2[C@@H]1O[C@H](CO)[C@@H]1O", "value": ">100 µg/mL"}
{"SMILES": "CCNc1nc(Nc2ccc(C#N)cc2F)nc(Oc2ccc3ccccc3c2Cl)n1", "value": ">270 µM"}
{"SMILES": "O=C1CSC(c2c(F)cccc2Cl)N1c1cc(Cl)cc(Cl)c1", "value": "48.05 µM"}
{"SMILES": "CNc1nc(Nc2ccc(C#N)cc2F)nc(Oc2ccc3ccccc3c2)n1", "value": "236 µM"}
{"SMILES": "CCCc1c(OC2CCCC2)c2cc(F)ccc2[nH]c1=O", "value": "21.2 µM"}
{"SMILES": "CCNc1nc(Nc2ccc(C#N)cc2F)nc(Oc2ccc3ccccc3c2)n1", "value": "222 µM"}
{"SMILES": "CCOC(=O)c1cc(-c2cccc(OC)c2)n(-c2cccc(N)c2)c1C", "value": "7.2 µM"}
{"SMILES": "CCNc1nc(Nc2ccc(C#N)cc2F)nc(Oc2ccc3ccccc3c2Br)n1", "value": ">262 µM"}
{"SMILES": "CCOC(=O)c1cc(-c2cccc(OC)c2)n(-c2cccc(Cl)c2)c1C", "value": "100 µM"}
{"SMILES": "CCOCn1c(C(=O)c2cccc(C#N)c2)c(CC)c(OC)nc1=O", "value": ">100 µM"}
{"SMILES": "CCOC(=O)c1cc(-c2ccccc2)n(-c2cccc(N=[N+]=[N-])c2)c1C", "value": "176 µM"}
{"SMILES": "[N-]=[N+]=N[C@H]1[C@H](n2cnc3c(N)ncnc32)O[C@@H]1CO", "value": ">100 µg/mL"}
{"SMILES": "CC(CC(F)(OC(F)(F)C(F)(F)C(F)(F)F)C(F)(F)F)(C(=O)OCCOP(=O)([O-])O)C(F)(OC(F)(F)C(F)(F)C(F)(F)F)C(F)(F)F.[NH3+]CCO", "value": ">100 µg/mL"}
{"SMILES": "CCOC(=O)c1cc2c3cc(OC)ccc3c3ccc(N=[N+]=[N-])cc3n2c1C", "value": ">300 µM"}

Repeating the first 7 entries:

SMILES | value
CNc1nc(Nc2ccc(C#N)cc2F)nc(Oc2ccc(C)cc2)n1 | 248 µM
Cc1cn([C@H]2O[C@@H](CO)C[C@@H]2N=[N+]=[N-])c(=O)[nH]c1=O | >100 µM
COC(=O)[C@H]1[C@@H]2C[C@@H](O[C@@H]3O[C@H](C)[C@@H](O)[C@H](N)[C@@H]3O)/C=C/C=C/C=C/C=C/C=C/C=C/C=C/[C@H](C)[C@@H](O)[C@H](C)[C@H](C)OC(=O)C[C@H](O)C[C@H](O)[C@@H](O)CC[C@H](O)C[C@H](O)C[C@](O)(C[C@@H]1O)O2 | >20 µg/mL
COc1ccc2c(c1)c1cc(C(C)=O)c(C)n1c1cccc(N)c21 | 40 µM
COc1cccc(N2C(=O)CSC2c2c(F)cccc2Cl)c1 | 56.54 µM
CC(=O)c1cc(-c2ccccc2)n(-c2cccc(N)c2)c1C | 22 µM
O=c1[nH]cnc2c1ncn2[C@@H]1O[C@H](CO)[C@H]1COS(=O)(=O)O | >100 µg/mL